Measured values from several laboratories, pooled; numbers as filed in NIAID ChemDB.

Common to all: growth or infection tests; species: Mycobacterium tuberculosis

Rows are shuffled and stem from different studies. An empty or dashed field is not shown. Inhibition is in % at the dose shown (toxicity tests: loss of growth or viability). MIC50, MIC90 and the like: level of inhibition, or share of isolates inhibited. MIC bound comes from a single tested concentration. For "inactive" no cut-off is given. ECn: concentration that inhibits the pathogen or its effect by n%.

structure,method,strain or isolate,read-out,mutations,dose,result
O=C(O)c1cccc(N=Nc2ccc(O)c(Cl)c2)c1,,H37Rv,MIC,,,>100 µg/mL
CC[C@@H](CO)NCCN[C@@H](CC)CO,,Isolate 13,MIC,,,1 µg/mL
NC(=O)c1ccc2oc3c(C(N)=O)cccc3c(=O)c2c1,,H37Rv,inhibition,,16 µg/mL,inactive
CCOC(=O)c1ccc(Br)c([N+](=O)[O-])c1,,H37Rv,MIC,,,100 µg/mL
Cc1cccc(NC2=CC(=O)C(=O)c3ccccc32)c1,resazurin,H37Rv,inhibition,,6.25 µg/mL,34%
O=c1c(O)c(-c2ccccc2)oc2ccccc12,,H37Rv,MIC,,,>12.5 µg/mL
c1ccc(C2SC(c3ccccc3)SC(c3ccccc3)S2)cc1,,H37Rv,MIC,,,>100 µg/mL
O=C(/C=C/c1ccncc1)c1ccco1,,H37Rv,EC50,,,>12.5 µg/mL
CCC(=O)c1ccc2c(c1)N(C(C)CN(C)C)c1ccccc1S2,BACTEC,H37Rv,MIC bound,,,>12.5 µg/mL
Oc1ccccc1Sc1ccccc1O,,H37Rv,MIC,,,25 µg/mL
CC(=O)/C(N=Nc1ccc(C(=O)N/N=C/c2ccccc2)cc1)=C(\C)O,,H37Rv,EC50,,,>12.5 µg/mL
O=C1C=CC(=O)N1n1c(-c2ccccc2)n[nH]c1=O,BACTEC,H37Rv,inhibition,,12.5 µg/mL,0%
N/C(COc1ccc(Cl)cc1)=N/NC(=O)c1ccncc1,,ATCC 35828 (pyrazinamide-resistant),MIC,,,12.5 µg/mL
Cc1c([N+](=O)[O-])ccc2oc3ccccc3c(=O)c12,,H37Rv,inhibition,,4 µg/mL,inactive
O=[N+]([O-])c1cccc2nc(Cl)ccc12,,H37Rv,MIC,,,25 µg/mL
CO[C@H]1/C=C/O[C@@]2(C)Oc3c(C)c(O)c4c(=O)c(c5oc6cc(N7CCN(CC(C)C)CC7)cc(=O)c6nc5c4c3=C2O)NC(=O)/C(C)=C\C=C\[C@H](C)[C@H](O)[C@@H](C)[C@@H](O)[C@@H](C)[C@H](OC(C)=O)[C@@H]1C,,2831 (rifampin-sensitive),MIC,,,0.012 µg/mL
O=[N+]([O-])c1cc2ncccc2c2ncccc12,,H37Rv,MIC,,,6.3 µg/mL
CC(=O)/C(N=Nc1ccc(C(=O)N/N=C/c2ccc(N(C)C)cc2)cc1)=C(\C)O,,H37Rv,MIC,,,>12.5 µg/mL
O=C(/C=C/C(=O)Nc1ccc(O)cc1)Nc1ccc(O)cc1,resazurin,H37Rv,MIC bound,,,>6.25 µg/mL
O=c1c(O)c(-c2ccccc2)oc2ccc(Br)cc12,,H37Rv,MIC,,,>12.5 µg/mL
O=C(O)CCCCC(=O)O,,H37Rv,MIC,,,>100 µg/mL
O=[N+]([O-])c1ccc(/C=N/Nc2nnc3c4ccccc4c4ncccc4c3n2)o1,,H37Rv,MIC bound,,,>6.25 µg/mL
CC[C@@H](C)N1CCN(c2cc(=O)c3nc4c(oc3c2)c2c(=O)c3c(O)c(C)c5c(c34)=C(O)[C@@](C)(O/C=C/[C@H](OC)[C@@H](C)[C@@H](OC(C)=O)[C@H](C)[C@H](O)[C@H](C)[C@@H](O)[C@@H](C)/C=C/C=C(/C)C(=O)N2)O5)CC1,,6 strains (rifampicin-resistant),MIC50,,,≤0.0125 µg/mL
C=C(C)CN(CC(=C)C)c1nc(N)nc(Cl)n1,,H37Rv,MIC,,,>100 µg/mL
C=CC(/C=C/c1ccc(OC2OC(CO)C(O)C(O)C2O)cc1)c1ccc(OC2OC(CO)C(O)C(O)C2O)cc1,BACTEC,H37Rv,MIC bound,,,>12.5 µg/mL
CC1COc2c(N3CCN(C)CC3)c(F)cc3c(=O)c(C(=O)O)cn1c23,,44 isolates (resistant),MIC50,,,1 µg/mL
O=c1c(O)c(-c2ccc(O)c(O)c2)oc2cc(O)cc(O)c12,,H37Rv,MIC bound,,,>6.25 µg/mL
O=C(/C=C/c1ccccc1)c1ccc(Cl)cc1O,,,EC50,,,<12.5 µg/mL
CO[C@H]1/C=C/O[C@@]2(C)Oc3c(C)c(O)c4c(=O)c(c5oc6cc(N7CCN(C(C)C)CC7)cc(=O)c6nc5c4c3=C2O)NC(=O)/C(C)=C\C=C\[C@H](C)[C@H](O)[C@@H](C)[C@@H](O)[C@@H](C)[C@H](OC(C)=O)[C@@H]1C,,35 (rifampin-resistant),MIC,,,0.2 µg/mL
COc1ccc(/C=C/C(=O)c2cccc(F)c2O)cc1,,H37Rv,MIC,,,>12.5 µg/mL
O=c1c2cc(OCO)ccc2[nH]c2cc3c(=O)c4cc(OCO)ccc4[nH]c3cc12,BACTEC,H37Rv,inhibition,,12.5 µg/mL,5%
Cc1cc(N)cc2c(=O)c3ccccc3oc12,,H37Rv,inhibition,,4 µg/mL,inactive
O=c1c2ccccc2c2ccccc2c(=O)n1-c1ccc2c(c1)Cc1ccccc1-2,BACTEC,H37Rv,MIC bound,,,>12.5 µg/mL
Oc1ccc(N=Cc2ccccc2)cc1,,H37Rv,MIC,,,>100 µg/mL
COc1ccc(C2Oc3c(I)cccc3C(=O)C2O)cc1,,H37Rv,EC50,,,>12.5 µg/mL
O=C(/C=C/c1ccccc1)c1ccco1,,H37Rv,MIC,,,19.2 µg/mL
COc1cc2c(c3oc(=O)cc(CCC(=O)O)c13)C1CC(=O)OC1O2,BACTEC,H37Rv,MIC,,,≥12.5 µg/mL
Cc1nc2ccccc2cc1Cl,,H37Rv,MIC,,,50 µg/mL
CCCN1CCN(c2cc(=O)c3nc4c(oc3c2)c2c(=O)c3c(O)c(C)c5c(c34)=C(O)[C@@](C)(O/C=C/[C@H](OC)[C@@H](C)[C@@H](OC(C)=O)[C@H](C)[C@H](O)[C@H](C)[C@@H](O)[C@@H](C)/C=C/C=C(/C)C(=O)N2)O5)CC1,,6 strains (rifampicin-resistant),MIC90,,,0.025 µg/mL
O=[N+]([O-])c1ccc(N2CCCCC2)cc1,,H37Rv,MIC,,,>100 µg/mL
CCCc1c2c([nH]c(=O)c1C)C(=O)c1[nH]c(=O)c(C)c(CCC)c1C2=O,resazurin / fluorescence,H37Rv,MIC90,Kanamycin-resistant,,0.06 µg/mL
COc1ccc(C(=O)CN2CCN(CC(=O)c3ccc(OC)cc3)CC2)cc1,BACTEC,H37Rv,inhibition,,12.8 µg/mL,19%
O/N=C/c1c[nH]c2ccccc12,,H37Rv,MIC,,,100 µg/mL
S=C(SCc1cc(Cl)cc2c1OCOC2)N1CCSCC1,BACTEC,H37Rv,MIC,,,≥128 µg/mL
Cc1ccc2ccc(N)cc2n1,,H37Rv,MIC,,,>100 µg/mL
COC(=O)c1ccc2oc3ccc([N+](=O)[O-])cc3c(=O)c2c1,,H37Rv,inhibition,,16 µg/mL,inactive
Cc1nc(Nc2ccc(Cl)cc2)sc1C(=O)Nc1cccc2c(=O)[nH][nH]c(=O)c12,resazurin,H37Rv,MIC bound,,,>6.25 µg/mL
C[C@@H]1CN(c2c(F)c(N)c3c(=O)c(C(=O)O)cn(C4CC4)c3c2F)C[C@H](C)N1,,Isolate 9,MIC,,,2 µg/mL
O=C(O)c1cc([N+](=O)[O-])c2oc3ccc([N+](=O)[O-])cc3c(=O)c2c1,,H37Rv,inhibition,,16 µg/mL,inactive
COc1cc(/C=N/NC(=O)c2ccc(N)cc2)ccc1O,,H37Rv,MIC,,,>12.5 µg/mL
COc1ccc(/C=C/C(=O)c2cccc(I)c2O)cc1,,H37Rv,MIC,,,>12.5 µg/mL
O=C1CC(c2ccccc2)Oc2c(I)cccc21,,,EC50,,,>12.5 µg/mL
Cl.OC1c2c(ccc3ccccc23)CCC1CN1CCCCC1,,H37Rv,MIC,,,100 µg/mL
CCCCN(CCNc1ccc(C)c2sc3ccccc3c(=O)c12)CC(C)O,BACTEC,H37Rv,inhibition,,12.5 µg/mL,85%
Cc1ccc(Nc2c(Cl)c(Cl)c(Nc3ccc(C)cc3S(=O)(=O)O)c3c2C(=O)c2c(O)ccc(O)c2C3=O)c(S(=O)(=O)O)c1,,H37Rv,MIC,,,>100 µg/mL
CCOC(=O)C(=CNc1ccc(N(C2=NCC(C)S2)c2ccc(F)c(Cl)c2)cc1)C(=O)OCC,resazurin,H37Rv,inhibition,,6.25 µg/mL,2%
NC(=O)c1ccc2oc3ccccc3c(=O)c2c1,,H37Rv,inhibition,,16 µg/mL,inactive
COc1ccc(/C=C/C(=O)c2cc(C(=O)O)ccc2O)cc1,,H37Rv,MIC,,,>12.5 µg/mL
C=CCO/N=C/c1cc(NC(=S)c2ccoc2C)ccc1Cl,BACTEC,H37Rv,inhibition,,12.5 µg/mL,98%
CCCCCc1cc(=O)[nH]c2c1C(=O)c1c(CCCCC)cc(=O)[nH]c1C2=O,resazurin / fluorescence,H37Rv,MIC90,,,0.04 µg/mL
O=c1cc(-c2ccccc2I)oc2ccccc12,,H37Rv,MIC,,,>12.5 µg/mL
O=C(O)c1cccc2oc3ccccc3c(=O)c12,,H37Rv,inhibition,,8 µg/mL,inactive
Cc1ccc(S(=O)(=O)Nc2cc(=O)[nH]c(=S)[nH]2)cc1,,H37Rv,MIC,,,>100 µg/mL
CO[C@H]1/C=C/O[C@@]2(C)Oc3c(C)c(O)c4c(O)c(c(/C=N/N5CCN(C)CC5)c(O)c4c3C2=O)NC(=O)/C(C)=C\C=C\[C@H](C)[C@H](O)[C@@H](C)[C@@H](O)[C@@H](C)[C@H](OC(C)=O)[C@@H]1C,,Isolate 16,MIC,,,<0.03 µg/mL
O=[N+]([O-])c1ccc2c(c1)S(=O)(=O)c1cc([N+](=O)[O-])ccc1O2,,H37Rv,MIC,,,>100 µg/mL
C[C@H]1COc2c(N3CCN(C)CC3)c(F)cc3c(=O)c(C(=O)O)cn1c23,,250 isolates,MIC90,,,1 µg/mL
Cc1c(C(=O)NCCO)[n+](=O)c2cc(Cl)ccc2n1[O-],BACTEC,H37Rv,MIC bound,,,≤12.5 µg/mL
CCCCCCCc1ccccn1,,H37Rv,MIC,,,100 µg/mL
Nc1c2c(nn1-c1ccccc1)C(=O)N(CCc1ccccc1)C2,BACTEC,H37Rv,MIC,,,≥12.8 µg/mL
Nc1ccc(C(=O)N/N=C/c2ccc(F)cc2)cc1,,H37Rv,MIC,,,>12.5 µg/mL
Nc1ccc(Oc2ccccc2)cc1S(=O)(=O)O,,H37Rv,MIC,,,>100 µg/mL
Cc1cc2oc3ccc([N+](=O)[O-])cc3c(=O)c2cc1[N+](=O)[O-],,H37Rv,inhibition,,32 µg/mL,inactive
Cc1cc(=O)[nH]c2c1C(=O)c1c(CCCCCCC(C)C)cc(=O)[nH]c1C2=O,resazurin / fluorescence,H37Rv,MIC90,,,0.04 µg/mL
COc1c(-c2ccccc2)oc2ccc(Br)cc2c1=O,,H37Rv,MIC,,,>12.5 µg/mL
O=C(O)/C(=C\c1ccccc1)c1ccccc1,,H37Rv,MIC,,,>100 µg/mL
O=c1cc(-c2ccccc2)oc2ccc(I)cc12,,H37Rv,MIC,,,>12.5 µg/mL
C[C@]1(COc2ccc(N3CCC(Oc4ccc(OC(F)(F)F)cc4)CC3)cc2)Cn2cc([N+](=O)[O-])nc2O1,,36 strains (INH-resistant),MIC90,,,0.013 µg/mL
N/C(COc1ccc([N+](=O)[O-])cc1)=N/NC(=O)c1ccncc1,,16 isolates,MIC50,,,12.5 µg/mL
COc1ccc(O)c(C(=O)/C=C/c2ccco2)c1,,,inhibition,,12.5 µg/mL,0%
Cl.Nc1cccc(OCCCBr)c1,,H37Rv,MIC,,,>100 µg/mL
CO[C@H]1/C=C/O[C@@]2(C)Oc3c(C)c(O)c4c(O)c(c5c(c4c3C2=O)NC2(CCN(CC(C)C)CC2)N=5)=NC(=O)/C(C)=C\C=C\[C@H](C)[C@H](O)[C@@H](C)[C@@H](O)[C@@H](C)[C@H](OC(C)=O)[C@@H]1C,,2237 (rifampicin-susceptible),MBC,,,0.125 µg/mL
NC(N)=NC(N)=NCCS(=O)(=O)O,BACTEC,H37Rv,MIC bound,,,>6.25 µg/mL
COc1ccc(/C=C/C(=O)c2cc(Br)ccc2O)cc1,,,EC50,,,>12.5 µg/mL
Cc1cc(C)c2oc3ccccc3c(=O)c2c1[N+](=O)[O-],,H37Rv,inhibition,,2 µg/mL,inactive
N/C(COc1cccc(Cl)c1)=N/NC(=O)c1ccncc1,,16 isolates,MIC90,,,12.5 µg/mL

A second listing of 10 rows from above:

structure	method	strain or isolate	read-out	mutations	dose	result
O=[N+]([O-])c1ccc(N2CCCCC2)cc1		H37Rv	MIC			>100 µg/mL
COc1cc(/C=N/NC(=O)c2ccc(N)cc2)ccc1O		H37Rv	MIC			>12.5 µg/mL
COC(=O)c1ccc2oc3ccc([N+](=O)[O-])cc3c(=O)c2c1		H37Rv	inhibition		16 µg/mL	inactive
S=C(SCc1cc(Cl)cc2c1OCOC2)N1CCSCC1	BACTEC	H37Rv	MIC			≥128 µg/mL
Cc1cc(=O)[nH]c2c1C(=O)c1c(CCCCCCC(C)C)cc(=O)[nH]c1C2=O	resazurin / fluorescence	H37Rv	MIC90			0.04 µg/mL
O=C(/C=C/c1ccccc1)c1ccc(Cl)cc1O			EC50			<12.5 µg/mL
Nc1ccc(Oc2ccccc2)cc1S(=O)(=O)O		H37Rv	MIC			>100 µg/mL
COc1ccc(O)c(C(=O)/C=C/c2ccco2)c1			inhibition		12.5 µg/mL	0%
CCC(=O)c1ccc2c(c1)N(C(C)CN(C)C)c1ccccc1S2	BACTEC	H37Rv	MIC bound			>12.5 µg/mL
NC(N)=NC(N)=NCCS(=O)(=O)O	BACTEC	H37Rv	MIC bound			>6.25 µg/mL